For two substances, Km results are on record in PMC3697012.

Assay in all cases: purified protein
Common to all, as to settings: pH 8.0; 37.0 °C

For data set [1], the system named is CC(=O)N[C@@H](CC[S@@+](C)[O-])C(=O)O.
In data set [2] the test system is CC(=O)N[C@@H](CC[S@+](C)[O-])C(=O)O.
The subject of data set [3] is C[S@+]([O-])CC[C@H](N)C(=O)O.

Turning to “MsrB (Rv2674) (Mycobacterium tuberculosis H37Rv)”, in data set [1], the Km was 1.7 ± 0.6 mM.

For the substance “MsrA (recombinant Mtb MsrA) (Mycobacterium tuberculosis H37Rv)”, the Km in data set [2] was found to be 1.6 ± 0.4 mM; in data set [3] it was 4.3 ± 0.6 mM.

By Km is commonly meant the concentration of substrate that gives half-maximal velocity.
